PubChem BioAssay AID1259414 – Drosophila RNAi Screening Center, 2018

- Purpose: 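Genome-wide screen for host control of endosymbiont load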 (primary screen)
- System: Drosophila JW18 cells infected with Wolbachia
- Knock-down reagent: long dsRNA against Drosophila genes, 0.25 µg dsRNA per well of a 384-well plate
- Time to read-out: 5 days
- Challenge: cells persistently infected with Wolbachia before knock-down; no added drug
- Read-out: 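Imaged fluorescence in situ signal for Wolbachia 23S rRNA per DAPI-counted host cell, given as a robust z-score within each plate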
- Direction: Wolbachia per cell robust z: higher = more Wolbachia per host cell than the plate typical
- Active means: 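Hit when robust z is 1.5 or more, or -1.5 or less, in at least two of three replicates; excludes dsRNAs with several or no targets, genes not expressed in JW18 and well A1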
The deposit covers about 24,000 reagents; below is a random part of those with a known target gene and a result. Of all reagents, about 1,210 (5%) are marked active. 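Inactive calls also include excluded dsRNAs with several or no targets, genes unexpressed in JW18, and well A1, regardless of score.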 Unmarked entries are inactive. Reagents against one gene are numbered here. Names joined by + are all predicted targets of the reagent.

| Wolbachia per cell robust z, rep 1 | Wolbachia per cell robust z, rep 2 | Wolbachia per cell robust z, rep 3 | target | reagent |
| --- | --- | --- | --- | --- |
| 0.863 | 0.714 | 0.367 | cnk | 1 |
| -0.537 | 0.606 | 0.761 | Tsp42Ef | 1 |
| 3.6 (active) | 3.26 | 1.12 | Polr2B | 1 |
| 1.38 | 1.3 | 0.426 | CG32832 | 1 |
| 0.604 | -1.01 | 0.14 | CG17187 | 1 |
| 1.93 (active) | 1.12 | 1.57 | CG17187 | 2 |
| -0.0744 | -0.358 | -0.0421 | tho2 | 1 |
| -0.748 | 1.23 | -0.291 | tho2 | 2 |
| -1.09 | 0.114 | 0.145 | Mabi | 1 |
| 0.178 | -1.02 | 1.08 | Mabi | 2 |
| 0.793 | -0.0625 | 0.346 | ATP8B | 1 |
| -1.38 | -1.57 | -1.3 | Cyp4e1 | 1 |
| -0.644 | 0.00219 | 0.352 | Cyp4e1 | 2 |
| 0.147 | -0.413 | -0.617 | CG15708 | 1 |
| -0.518 | -0.459 | -0.0182 | spt4 + Mvk + CG33672 | 1 |
| -0.526 | 0.0238 | -0.673 | CG4598 | 1 |
| -1.35 | -0.00106 | 0.0171 | CG4582 | 1 |
| -0.566 | -6.62 | -0.202 | CG3092 | 1 |
| 0.592 | 0.424 | 0.538 | CG3092 | 2 |
| 0.00982 | -0.443 | -0.176 | CG10254 | 1 |
| -1.5 | -1.04 | -0.473 | CG10254 | 2 |
| -0.0285 | 0.134 | -0.91 | Or22b | 1 |
| -1.29 | -0.345 | -1.59 | Cdep | 1 |
| 0.819 | 0.981 | -0.26 | Cdep | 2 |
| -5.19 | 1.82 | -0.0552 | Cdep | 3 |
| -0.407 | -2.73 | -0.538 | Cdep | 4 |
| -2.28 | -0.288 | -0.769 | CG3081 | 1 |
| 0.26 | -0.788 | -0.363 | Cep135 | 1 |
| -1.39 | -0.794 | -0.437 | Cep135 | 2 |
| 1.32 | 0.0102 | 1.79 | drosha | 1 |
| -1.8 | -0.489 | -0.556 | CG6790 | 1 |
| -0.439 | 0.991 | -0.681 | ttk | 1 |
| 0.546 | 1.7 | -0.898 | ttk | 2 |
| 1.01 | 0.978 | 0.55 | ttk | 3 |
| 0.145 | -0.808 | 0.558 | CG7557 | 1 |
| -1.43 | -0.0505 | 0.321 | CG7557 | 2 |
| 1.09 | 0.364 | 0.215 | CG7860 | 1 |
| 0.268 | -1.95 | 0.545 | CG7860 | 2 |
| -0.368 | -0.469 | -2.29 | Hsp70Aa + Hsp70Ab | 1 |
| -0.678 | -7.07 | 0.015 | Hsp70Aa + Hsp70Ab | 2 |
| -0.961 | 0.321 | -1.1 | GstT4 | 1 |
| 0.0454 | -0.34 | -0.193 | CG42504 + CG31358 + CG42505 | 1 |
| -0.458 | -2.65 | -0.49 | CG34230 | 1 |
| -0.669 | 0.364 | -1.1 | Muc96D | 1 |
| -0.573 | -1.81 | -1.52 | Muc96D | 2 |
| -4.66 | 0.781 | -0.555 | TBC1d7 | 1 |
| 0.974 | -0.708 | -0.523 | CG32599 | 1 |
| 0.71 | 0.508 | 0.182 | CG32599 | 2 |
| 1.13 | 4.06 | -0.593 | CG6425 | 1 |
| 1.97 (active) | 1.41 | 2.48 | Lrr47 | 1 |
| 0.481 | 1.06 | -1.19 | Usp12-46 | 1 |
| -0.654 | -0.938 | -1.07 | CG12546 + CG14452 | 1 |
| -0.613 | -1.62 | -0.263 | CG4377 | 1 |
| 0.746 | 0.0659 | 0.572 | CG4377 | 2 |
| 0.661 | -0.131 | 0.588 | Elp4 | 1 |
| -0.0891 | -2.72 | -2.69 | lectin-21Cb | 1 |
| -0.469 (active) | -1.64 | -1.92 | CG10979 | 1 |
| -0.83 | -1.35 | -2.67 | CG31639 | 1 |
| 0.408 | 1.09 | 0.467 | CG31639 | 2 |
| -1.16 | -0.999 | -0.557 | CG9254 | 1 |
| 0.861 | -3.54 | 0.645 | Ank2 | 1 |
| 0.0927 | 0.759 | -4.82 | Ank2 | 2 |
| -0.18 | -0.0264 | 0.935 | Ank2 | 3 |
| 0.0221 | 0.106 | -1.9 | Ank2 | 4 |
| -2.08 | -1.18 | -0.955 | Ank2 | 5 |
| -0.0216 | -0.928 | -0.351 | Ank2 | 6 |
| 0.531 | 0.0113 | 1.55 | Synd | 1 |
| 1.44 | 0.63 | 1.1 | Gapdh2 | 1 |
| 0.349 | 0.0299 | 0.207 | Gapdh2 | 2 |

A run of entries of the results above:
| Wolbachia per cell robust z, rep 1 | Wolbachia per cell robust z, rep 2 | Wolbachia per cell robust z, rep 3 | target | reagent |
| --- | --- | --- | --- | --- |
| -0.961 | 0.321 | -1.1 | GstT4 | 1 |
| 0.0454 | -0.34 | -0.193 | CG42504 + CG31358 + CG42505 | 1 |
| -0.458 | -2.65 | -0.49 | CG34230 | 1 |
| -0.669 | 0.364 | -1.1 | Muc96D | 1 |
| -0.573 | -1.81 | -1.52 | Muc96D | 2 |
| -4.66 | 0.781 | -0.555 | TBC1d7 | 1 |
| 0.974 | -0.708 | -0.523 | CG32599 | 1 |
